Record: PubChem BioAssay AID1259414 (Drosophila RNAi Screening Center, 2018)
The screen tested about 24,000 reagents; shown is a random part of those that have a named target and a result. Over the whole deposit, about 1,210 (5%) were called active. 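Inactive calls also include excluded dsRNAs with several or no targets, genes unexpressed in JW18, and well A1, regardless of score.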 Entries without a mark were called inactive. A plus sign joins genes that one reagent is predicted to hit.

Test: 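Host factors increasing or decreasing Wolbachia levels in cultured fly cells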 (primary screen)
Cell system: Drosophila JW18 cells infected with Wolbachia
Knock-down reagent: long dsRNA against Drosophila genes, 0.25 µg dsRNA per well of a 384-well plate
Time to read-out: 5 days
Challenge: cells persistently infected with Wolbachia before knock-down; no added drug
Measurement: 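Imaged fluorescence in situ signal for Wolbachia 23S rRNA per DAPI-counted host cell, given as a robust z-score within each plate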
Reading the numbers: Wolbachia per cell robust z: higher = more Wolbachia per host cell than the plate typical
Hit rule: 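Hit when robust z is 1.5 or more, or -1.5 or less, in at least two of three replicates; excludes dsRNAs with several or no targets, genes not expressed in JW18 and well A1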

predicted target,dsRNA,"Wolbachia per cell robust z, rep 1","Wolbachia per cell robust z, rep 2","Wolbachia per cell robust z, rep 3"
fmt,DRSC09717,0.356,-0.431,1.06
bi,DRSC18742,-2.97,0.751,-0.104
bi,DRSC28848,-0.234,0.184,0.347
bi,DRSC38941,-0.785,-1.38,0.967
bi,DRSC40760,-0.00475,-0.23,0.573
CG6329,DRSC06976,-0.419,1.28,0.67
GlcAT-I,DRSC17307,1.13,-0.172,0.846
HP5,DRSC19773,-3.41 (active),1.46,-2.31
HP5,DRSC27040,-0.634,1.06,0.852
CG5762,DRSC15869,-0.851,-0.196,-0.458
Sap-r,DRSC16849,1.02,0.439,-0.325
Sap-r,DRSC21916,-1.62,-1.08,0.529
Sap-r,DRSC27246,0.286,-0.926,-2.51
Jon99Fi + Jon99Cii + Jon99Fii + 1 more,DRSC15298,-0.605,-1.08,0.000931
CG5342,DRSC15776,-0.208,-0.769,-0.441
Acbp4,DRSC11023,-0.357,0.0099,0.481
Acbp4,DRSC28938,-1.66,-3.09,-1.21
Adgf-D,DRSC16521,-1.71,1.89,-0.417
CG16721,DRSC18113,1.49,0.704,1.13
CG15343,DRSC18028,-4.75 (active),-3.92,0.192
CG9692,DRSC11091,-0.956,-1.28,-0.128
GPHR,DRSC07075,-0.227,-0.101,-1.23
Dap160,DRSC03313,-5.07,-0.11,0.538
Dap160,DRSC27467,0.23,0.68,-0.0204
lncRNA:CR42836,DRSC40537,-1.53,-2.2,-2.25
Jhbp4,DRSC14222,0.543,-1.19,-0.577
Gga,DRSC18260,0.803,-2.32,0.509
Gga,DRSC27761,1.26,0.245,-0.32
path,DRSC10361,-0.032,0.16,-1.17
Usp47,DRSC11313,0.0264,-0.58,-0.0116
Usp47,DRSC41260,0.974,0.505,0.589
p23,DRSC15158,1.05,1.06,1.07
p23,DRSC27806,0.177,0.452,0.0109
CG10931,DRSC06015,0.838,0.548,0.654
CG1635,DRSC15131,0.664,-3.02,-0.449
CG1635,DRSC25487,0.815,1.56,1.73
Lgr3,DRSC15704,0.534,-0.0821,-0.114
Lgr3,DRSC15706,-0.0222,-0.0914,1.18
RpL15,DRSC20963,1.48,-0.613,-0.424
Syx6,DRSC07032,-0.0242,0.896,-0.00187
Syx6,DRSC25244,1.5,1.21,0.842
GstE9,DRSC06679,-1.63,-0.629,1.25
GstE9,DRSC29204,-0.26,-0.662,0.0422
FipoQ,DRSC15413,0.875,1.01,1.17
FipoQ,DRSC24515,0.0723,-0.786,-0.878
mt:ND5,DRSC40576,0.22,-1.43,-0.3
CG13375,DRSC18621,-1.26,0.993,0.794
CG32388 + CG43439,DRSC08861,1.09,0.376,1.85
hebe,DRSC05192,-0.963,-7.52,-1.06
hebe,DRSC06605,-0.17,-0.192,-0.237
hebe,DRSC21614,-0.356,-0.586,0.553
hebe,DRSC24505,-0.565,-1.27,0.183
CG9806,DRSC18444,-3.43,0.712,1.62
CG9806,DRSC27417,1.03,0.403,-0.184
Osi8,DRSC12277,0.268,-2.49,0.317
Osi8,DRSC27462,0.809,0.54,0.808
anne,DRSC17103,0.643,0.252,0.762
anne,DRSC29952,-0.397,-0.104,0.772
anne,DRSC40853,-0.306,-0.464,-0.518
klu,DRSC11357,0.661,0.709,-1.43
klu,DRSC26367,-1.58,0.00257,-7.32
CG42750,DRSC03019,-0.448,0.208,-4.79
CG42750,DRSC03024,0.743,-0.349,-1.09
CG42750,DRSC21414,-0.932,1.28,-0.633
CG42750,DRSC23218,0.468,0.675,0.749
CG42750,DRSC28148,-0.386,0.897,-0.323
CG42750,DRSC28791,-0.603,-1.03,0.0476
mRpS30,DRSC20107,-2.82 (active),-9.19,0.467

6 of these entries, set out differently:
predicted target	dsRNA	Wolbachia per cell robust z, rep 1	Wolbachia per cell robust z, rep 2	Wolbachia per cell robust z, rep 3
Osi8	DRSC12277	0.268	-2.49	0.317
Osi8	DRSC27462	0.809	0.54	0.808
anne	DRSC17103	0.643	0.252	0.762
anne	DRSC29952	-0.397	-0.104	0.772
anne	DRSC40853	-0.306	-0.464	-0.518
klu	DRSC11357	0.661	0.709	-1.43
